Anti-infective test results gathered from many reports (values: NIAID ChemDB through PubChem).

Shared fields: tests on isolated targets; agent: Hepatitis B virus; target: DNA polymerase

Rows are shuffled and stem from different studies. An empty or dashed field is not shown. a–b is a range or a potency band. ICn: concentration for n% inhibition.

{"compound": "COc1nc(NCCO)nc(Nc2ccc3cn[nH]c3c2)n1", "endpoint": "IC50", "result": "0.1–1 µg/mL"}
{"compound": "Nc1nc(=O)n([C@@H]2C=C(F)[C@H](CO)O2)cc1F", "endpoint": "IC50", "result": "0.22 µM"}
{"compound": "Cc1ccc(C(=O)N2CCOCC2)c(Nc2ccc3cn[nH]c3c2)n1", "endpoint": "IC50", "result": "<1 µg/mL"}
{"compound": "COc1nc(Nc2ccc3[nH]ncc3c2)nc(NN2CCN(C)CC2)n1", "endpoint": "IC50", "result": ">1 µg/mL"}
{"compound": "Nc1ccn([C@H]2CS[C@@H](COP(=O)(O)OP(=O)(O)OP(=O)(O)O)O2)c(=O)n1", "endpoint": "IC50", "strain or isolate": "Polymerase mutant V553I", "result": "0.503 µM"}
{"compound": "Cc1ccc(C(=O)NN2CCOCC2)c(Nc2ccc3cn[nH]c3c2)n1", "endpoint": "IC50", "result": "~0.1 µg/mL"}
{"compound": "Nc1nc2c(ncn2CC[C@H](CO)COP(=O)(O)OP(=O)(O)OP(=O)(O)O)c(=O)[nH]1", "endpoint": "IC50", "result": "2.5 µM"}
{"compound": "COCCNc1nc(Nc2ccc3[nH]ncc3c2)nc(OC)n1", "endpoint": "IC50", "result": "0.1–1 µg/mL"}
{"compound": "Cc1cn([C@H]2C[C@H](Cl)[C@@H](COP(=O)(O)OP(=O)(O)OP(=O)(O)O)O2)c(=O)nc1N", "endpoint": "IC50", "result": "<100 µM"}
{"compound": "Cc1ccc(C(=O)NN2CCOCC2)c(Nc2ccc3[nH]ncc3c2)n1", "endpoint": "IC50", "result": "<0.1 µg/mL"}
{"compound": "COc1nc(Nc2ccc3[nH]ncc3c2)nc(N2CCOCC2)n1", "endpoint": "IC50", "result": "0.1 µg/mL"}
{"compound": "Nc1ccn([C@@H]2CS[C@H](CO)O2)c(=O)n1", "endpoint": "IC50", "result": "0.01 µM"}
{"compound": "Cc1ccc(C(=O)Nc2cccnc2)c(Nc2ccc3[nH]ncc3c2)n1", "endpoint": "IC50", "result": "0.01 µg/mL"}
{"compound": "COc1nc(NCCCn2ccnc2)nc(Nc2ccc3cn[nH]c3c2)n1", "endpoint": "IC50", "result": "0.1–1 µg/mL"}
{"compound": "Cc1ccc(C(=O)NC2CCC(O)CC2)c(Nc2ccc3[nH]ncc3c2)n1", "endpoint": "IC50", "result": "~0.01 µg/mL"}
{"compound": "CCOC(=O)C1CCN(c2nc(Nc3ccc4[nH]ncc4c3)nc(OC)n2)CC1", "endpoint": "IC50", "result": "0.1–1 µg/mL"}
{"compound": "Nc1nc2c(ncn2CCC(CO)COP(=O)(O)OP(=O)(O)OP(=O)(O)O)c(=O)[nH]1", "endpoint": "Ki", "result": "0.04 µM"}
{"compound": "CNC(=O)c1ccc(C)nc1Nc1ccc2cn[nH]c2c1", "endpoint": "IC50", "result": "0.1 µg/mL"}

2 of the rows above, restated:

| compound | endpoint | strain or isolate | result |
|---|---|---|---|
| Nc1ccn([C@@H]2CS[C@H](CO)O2)c(=O)n1 | IC50 |  | 0.01 µM |
| Nc1nc2c(ncn2CC[C@H](CO)COP(=O)(O)OP(=O)(O)OP(=O)(O)O)c(=O)[nH]1 | IC50 |  | 2.5 µM |